System: [PSI+] prion (prion form of the protein Sup35p), STRg6 strain
Format: cell-based, Saccharomyces cerevisiae

Compound: CCN(CC)CCCC(C)Nc1c2ccc(Cl)cc2nc2ccc(OC)cc12 (stereo not shown) [quinacrine]
- synergy of action with guanidium chloride: strong synergy of action

Source: US8129402B2 (priority 2002, dated 2012)
